Experimental data from patent publication US20230058961A1, “SUBSTITUTED HETEROCYCLICS WITH THERAPEUTIC ACTIVITY IN HIV” (New York Blood Center, Inc., priority 2019, published 2023).

Test system: pseudovirus HIV-1 HXB2
Type: cell-based
Conditions: selectivity index SI=CC50/IC50, TZM-bl cells

Row | SMILES | SI
1 | Cc1cc(-c2ccc(C(F)(F)F)cn2)[nH]c1C(=O)NC(CN)c1csc(CO)n1 (stereo not shown) [Compound 63, N-(2-Amino-1-(2-(hydroxymethyl)thiazol-4-yl)ethyl)-3-methyl-5-(5-(trifluoromethyl)pyridin-2-yl)-1H-pyrrole-2-carboxamide] | 30.2
2 | NCC(NC(=O)c1ccc(-c2ccc(Cl)cn2)[nH]1)c1nc(CO)cs1 (stereo not shown) [Compound 16, N-(2-Amino-1-(4-(hydroxymethyl)thiazol-2-yl)ethyl)-5-(5-chloropyridin-2-yl)-1H-pyrrole-2-carboxamide] | >78
3 | NCC(NC(=O)c1ccc(-c2ccc(C(F)(F)F)cn2)[nH]1)c1nc(CCO)cs1 (stereo not shown) [Compound 25, N-(2-Amino-1-(4-(2-hydroxyethyl)thiazol-2-yl)ethyl)-5-(5-(trifluoromethyl)pyridin-2-yl)-1H-pyrrole-2-carboxamide] | 59
4 | CC(C)(N)C(NC(=O)c1ccc(-c2ccc(C(F)(F)F)cn2)[nH]1)c1nc(CO)cs1 (stereo not shown) [Compound 23, N-(2-Amino-1-(4-(hydroxymethyl)thiazol-2-yl)-2-methylpropyl)-5-(5-(trifluoromethyl)pyridin-2-yl)-1H-pyrrole-2-carboxamide] | 35
5 | Cc1cc(-c2ccc(C(F)(F)F)cn2)[nH]c1C(=O)NC(CN)c1csc(CO)n1 (stereo not shown) [Compound 64, N-(2-Amino-1-(2-(hydroxymethyl)thiazol-4-yl)ethyl)-3-methyl-5-(5-(trifluoromethyl)pyridin-2-yl)-1H-pyrrole-2-carboxamide] | 36.8
6 | NCC(NC(=O)c1ccc(-c2ccc(Cl)cn2)[nH]1)c1ncc(CO)s1 (stereo not shown) [Compound 2, N-(2-Amino-1-(5-(hydroxymethyl)thiazol-2-yl)ethyl)-5-(5-chloropyridin-2-yl)-1H-pyrrole-2-carboxamide] | 52
7 | Cc1cc(-c2ccc(C(F)(F)F)cn2)[nH]c1C(=O)NC(c1ncc(CO)s1)C(C)(C)N (stereo not shown) [Compound 11, N-(2-Amino-1-(5-(hydroxymethyl)thiazol-2-yl)-2-methylpropyl)-3-methyl-5-(5-(trifluoro-methyl)pyridin-2-yl)-1H-pyrrole-2-carboxamide] | 59
8 | Cc1cc(-c2ccc(C(F)(F)F)cn2)[nH]c1C(=O)NC(c1ncc(CO)s1)C(C)(C)N (stereo not shown) [Compound 12, N-(2-Amino-1-(5-(hydroxymethyl)thiazol-2-yl)-2-methylpropyl)-3-methyl-5-(5-(trifluoro-methyl)pyridin-2-yl)-1H-pyrrole-2-carboxamide] | 87
9 | NCC(NC(=O)c1ccc(-c2ccc(C(F)(F)F)cn2)[nH]1)c1ncc(C(O)CO)s1 (stereo not shown) [Compound 14, N-(2-Amino-1-(5-(1,2-dihydroxyethyl)thiazol-2-yl)ethyl)-5-(5-(trifluoromethyl)pyridin-2-yl)-1H-pyrrole-2-carboxamide] | >19
10 | NCC(NC(=O)c1ccc(-c2ccc(C(F)(F)F)cn2)[nH]1)c1nc(CCO)cs1 (stereo not shown) [Compound 26, N-(2-Amino-1-(4-(2-hydroxyethyl)thiazol-2-yl)ethyl)-5-(5-(trifluoromethyl)pyridin-2-yl)-1H-pyrrole-2-carboxamide] | 120
11 | NCC(NC(=O)c1ccc(-c2ccc(C(F)(F)F)cn2)[nH]1)c1nc(CCCO)cs1 (stereo not shown) [Compound 27, N-(2-Amino-1-(4-(3-hydroxypropyl)thiazol-2-yl)ethyl)-5-(5-(trifluoromethyl)pyridin-2-yl)-1H-pyrrole-2-carboxamide] | >49.5
12 | NCC(NC(=O)c1ccc(-c2ccc(C(F)(F)F)cn2)[nH]1)c1nc(CO)c(CO)s1 (stereo not shown) [Compound 35, N-(2-Amino-1-(4,5-bis(hydroxymethyl)thiazol-2-yl)ethyl)-5-(5-(trifluoromethyl)pyridin-2-yl)-1H-pyrrole-2-carboxamide] | 63
13 | Cc1cc(-c2ccc(Cl)cn2)[nH]c1C(=O)NC(CN)c1ncc(CO)s1 (stereo not shown) [Compound 4, N-(2-Amino-1-(5-(hydroxymethyl)thiazol-2-yl)ethyl)-5-(5-chloropyridin-2-yl)-3-methyl-1H-pyrrole-2-carboxamide] | 39.6
14 | Cc1cc(-c2ccc(Cl)cn2)[nH]c1C(=O)NC(CN)c1ncc(CO)s1 (stereo not shown) [Compound 3, N-(2-Amino-1-(5-(hydroxymethyl)thiazol-2-yl)ethyl)-5-(5-chloropyridin-2-yl)-3-methyl-1H-pyrrole-2-carboxamide] | 81.9
15 | NCC(NC(=O)c1ccc(-c2ccc(Cl)cn2)[nH]1)c1nc(CO)cs1 (stereo not shown) [Compound 15, N-(2-Amino-1-(4-(hydroxymethyl)thiazol-2-yl)ethyl)-5-(5-chloropyridin-2-yl)-1H-pyrrole-2-carboxamide] | >26
16 | Cc1cc(-c2ccc(C(F)(F)F)cn2)[nH]c1C(=O)NC(CN)c1cnc(CO)s1 (stereo not shown) [Compound 62, N-(2-Amino-1-(2-(hydroxymethyl)thiazol-5-yl)ethyl)-3-methyl-5-(5-(trifluoromethyl)pyridin-2-yl)-1H-pyrrole-2-carboxamide] | 9.8
17 | NCC(NC(=O)c1ccc(-c2ccc(C(F)(F)F)cn2)[nH]1)c1nccs1 (stereo not shown) [Compound 38, N-(2-Amino-1-(thiazol-2-yl)ethyl)-5-(5-(trifluoromethyl)pyridin-2-yl)-1H-pyrrole-2-carboxamide] | 78.0

Row | SMILES | SI
18 | NCC(NC(=O)c1ccc(-c2ccc(C(F)(F)F)cn2)[nH]1)c1ncc(CO)s1 (stereo not shown) [Compound 5, N-(2-Amino-1-(5-(hydroxymethyl)thiazol-2-yl)ethyl)-5-(5-(trifluoromethyl)pyridin-2-yl)-1H-pyrrole-2-carboxamide] | >127
19 | NCC(NC(=O)c1ccc(-c2ccc(C(F)(F)F)cn2)[nH]1)c1ncc(C(O)CO)s1 (stereo not shown) [Compound 13, N-(2-Amino-1-(5-(1,2-dihydroxyethyl)thiazol-2-yl)ethyl)-5-(5-(trifluoromethyl)pyridin-2-yl)-1H-pyrrole-2-carboxamide] | >54
20 | NCC(NC(=O)c1ccc(-c2ccc(C(F)(F)F)cn2)[nH]1)c1ncc(CO)s1 (stereo not shown) [Compound 6, N-(2-Amino-1-(5-(hydroxymethyl)thiazol-2-yl)ethyl)-5-(5-(trifluoromethyl)pyridin-2-yl)-1H-pyrrole-2-carboxamide] | 101
21 | CC(C)(N)C(NC(=O)c1ccc(-c2ccc(C(F)(F)F)cn2)[nH]1)c1nc(CO)cs1 (stereo not shown) [Compound 24, N-(2-Amino-1-(4-(hydroxymethyl)thiazol-2-yl)-2-methylpropyl)-5-(5-(trifluoromethyl)pyridin-2-yl)-1H-pyrrole-2-carboxamide] | 102
22 | NCC(NC(=O)c1ccc(-c2ccc(C(F)(F)F)cn2)[nH]1)c1nccs1 (stereo not shown) [Compound 37, N-(2-Amino-1-(thiazol-2-yl)ethyl)-5-(5-(trifluoromethyl)pyridin-2-yl)-1H-pyrrole-2-carboxamide] | 45
23 | NCC(NC(=O)c1ccc(-c2ccc(C(F)(F)F)cn2)[nH]1)c1csc(CO)n1 (stereo not shown) [Compound 66, N-(2-Amino-1-(2-(hydroxymethyl)thiazol-4-yl)ethyl)-5-(5-(trifluoromethyl)pyridin-2-yl)-1H-pyrrole-2-carboxamide] | 50
24 | CC(CN)(NC(=O)c1ccc(-c2ccc(C(F)(F)F)cn2)[nH]1)c1nc(CO)cs1 (racemic) [Compound 32, N-(1-Amino-2-(4-(hydroxymethyl)thiazol-2-yl)propan-2-yl)-5-(5-(trifluoromethyl)pyridin-2-yl)-1H-pyrrole-2-carboxamide] | >14
25 | Cc1cc(-c2ccc(C(F)(F)F)cn2)[nH]c1C(=O)NC(CN)c1cnc(CO)s1 (stereo not shown) [Compound 61, N-(2-Amino-1-(2-(hydroxymethyl)thiazol-5-yl)ethyl)-3-methyl-5-(5-(trifluoromethyl)pyridin-2-yl)-1H-pyrrole-2-carboxamide] | 28.3
26 | NCC(NC(=O)c1ccc(-c2ccc(Cl)cn2)[nH]1)c1cnc(CO)s1 (stereo not shown) [Compound 60, N-(2-Amino-1-(2-(hydroxymethyl)thiazol-5-yl)ethyl)-5-(5-chloropyridin-2-yl)-1H-pyrrole-2-carboxamide] | >29.4
27 | NCC(NC(=O)c1ccc(-c2ccc(C(F)(F)F)cn2)[nH]1)c1cnc(CO)s1 (stereo not shown) [Compound 57, N-(2-Amino-1-(2-(hydroxymethyl)thiazol-5-yl)ethyl)-5-(5-(trifluoromethyl)pyridin-2-yl)-1H-pyrrole-2-carboxamide] | >58
28 | NCC(NC(=O)c1ccc(-c2ccc(C(F)(F)F)cn2)[nH]1)c1csc(CO)n1 (stereo not shown) [Compound 65, N-(2-Amino-1-(2-(hydroxymethyl)thiazol-4-yl)ethyl)-5-(5-(trifluoromethyl)pyridin-2-yl)-1H-pyrrole-2-carboxamide] | 52.7
29 | NCC(NC(=O)c1ccc(-c2ccc(C(F)(F)F)cn2)[nH]1)c1nc(CCCO)cs1 (stereo not shown) [Compound 28, N-(2-Amino-1-(4-(3-hydroxypropyl)thiazol-2-yl)ethyl)-5-(5-(trifluoromethyl)pyridin-2-yl)-1H-pyrrole-2-carboxamide] | 91
30 | NCC(NC(=O)c1ccc(-c2ccc(C(F)(F)F)cn2)[nH]1)c1nc(C(O)CO)cs1 (stereo not shown) [Compound 30, N-(2-Amino-1-(4-(1,2-dihydroxyethyl)thiazol-2-yl)ethyl)-5-(5-(trifluoromethyl)pyridin-2-yl)-1H-pyrrole-2-carboxamide] | >30
31 | NCC(NC(=O)c1ccc(-c2ccc(Cl)cn2)[nH]1)c1csc(CO)n1 (stereo not shown) [Compound 67, N-(2-Amino-1-(2-(hydroxymethyl)thiazol-4-yl)ethyl)-5-(5-chloropyridin-2-yl)-1H-pyrrole-2-carboxamide] | >13.9
32 | Cc1cc(-c2ccc(C(F)(F)F)cn2)[nH]c1C(=O)NC(C)(CN)c1nc(CO)cs1 (racemic) [Compound 31, N-(1-Amino-2-(4-(hydroxymethyl)thiazol-2-yl)propan-2-yl)-3-methyl-5-(5-(trifluoromethyl)-pyridin-2-yl)-1H-pyrrole-2-carboxamide] | >26
33 | NCC(NC(=O)c1ccc(-c2ccc(Cl)cn2)[nH]1)c1csc(CO)n1 (stereo not shown) [Compound 68, N-(2-Amino-1-(2-(hydroxymethyl)thiazol-4-yl)ethyl)-5-(5-chloropyridin-2-yl)-1H-pyrrole-2-carboxamide] | >12.9
34 | NCC(NC(=O)c1ccc(-c2ccc(C(F)(F)F)cn2)[nH]1)c1nc(C(O)CO)cs1 (stereo not shown) [Compound 29, N-(2-Amino-1-(4-(1,2-dihydroxyethyl)thiazol-2-yl)ethyl)-5-(5-(trifluoromethyl)pyridin-2-yl)-1H-pyrrole-2-carboxamide] | >22
